The text below walks through data of PubChem BioAssay AID710 (SRMLSC, 2007).

The structures appear in SMILES notation. This is a selection; strong and weak results do not stand in their true shares. Activity calls are given as the source filed them.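 Rule for the calls: active = growth inhibition above about 50% at one test dose (limit read from the data); inactive = the rest.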

A short description of the test: antibacterial activity against E. coli BW25113 – strain BW25113, expanded library, OD600, primary screen (AID 710).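 Note: growth measured after 20 h incubation at 37 °C.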 To be noted: OD600 absorbance, at 100 µM, active compounds read high.
Regarding `COP1(=S)c2c(C)nn(CCC#N)c2N=C(c2ccc(F)cc2)N1C` (stereo not given), the growth inhibition was inactive: 5%. The same measure for `O=C(COc1ccccc1)OC1CN2CCC1CC2` (stereo not given): inactive: -8%. Under `O=C(OC1CN2CCC1CC2)C12CC3CC(CC(C3)C1)C2` (stereo not given) stands inactive: 0%. The same measure for `CCN(CC)C(=S)SC(NC=O)C(Cl)(Cl)Cl` (stereo not given): inactive: 25%; for `O=P(Nc1nccs1)(c1ccccc1)c1nc2ccccc2s1` (stereo not given): inactive: 2%; for `CCOP1(=S)c2c(C)nn(CCC#N)c2N=C(c2ccccc2F)N1C` (stereo not given): inactive: 9%. For the compound `O=[N+]([O-])c1ccc2c(c1)nnn2O`, the growth inhibition is inactive: -4%. The same measure for `CCOP1(=S)c2c(C)nn(CCC#N)c2N=C(c2ccc(F)cc2)N1C` (stereo not given): inactive: -4%; for `Cc1cccc(OCC(=O)OC2CN3CCC2CC3)c1` (stereo not given): inactive: -4%. Under `O=P1(Nc2ccccn2)COc2ccccc2OC1` stands inactive: 6%. Turning to `Clc1n[nH]nc1-c1nn[nH][15n]1`, the growth inhibition was inactive: 3%.

With `Cc1nn(-c2ccccc2)c2c1P(=O)(N1CCOCC1)N(C)C(c1ccccc1)=N2` (stereo not given), the growth inhibition was inactive: 0%. Under `O=P1(Nc2ncccn2)COc2ccccc2OC1` stands inactive: 0%; under `Cc1ccc(OCC(=O)OC2CN3CCC2CC3)cc1` (stereo not given), inactive: 2%; under `O=P1(Nc2ccc(Br)cn2)COc2ccccc2OC1`, inactive: -4%.

Take `O=C(OC1CN2CCC1CC2)c1cccc(Cl)c1` (stereo not given): the growth inhibition is inactive: 12%. Under `O=P(Nc1nccs1)(c1ccccc1)c1ccccc1` stands inactive: 6%; under `c1nnnn1CCn1cnnn1`, inactive: 8%. Under `O=P1(Nc2nc3ccc(Cl)cc3s2)COc2ccccc2O1` (stereo not given) stands inactive: 7%; under `CCOC(=O)NC(Sc1ccccc1)C(Cl)(Cl)Cl` (stereo not given), inactive: -2%; under `COC(=O)c1cc2c(s1)N=C(c1ccccc1)N(C)P2(=O)N1CCOCC1` (stereo not given), inactive: 6%. Under `CCC(=O)N1C2C3N(C(=O)CC)C1C1N(C(=O)CC)C(C(N1C(=O)CC)N3C(=O)CC)N2C(=O)CC` stands inactive: -6%; under `CCOP(=O)(Nc1ccccc1)OCC`, inactive: -5%; under `CC(C)CC(=O)NC(Sc1ccc(Cl)cc1)C(Cl)(Cl)Cl` (stereo not given), inactive: -2%. As for `Cc1c2non([O-])c-2c(C)[n+](=O)[n+]1[O-]`, the growth inhibition is active: 95%. The same measure for `Oc1ccccc1CNc1ccccn1`: inactive: 12%; for `O=[N+]([O-])c1cccc2n[nH]nc12`: inactive: 9%; for `CC(=O)N1C2C3N(C(C)=O)C1C1N(C(C)=O)C(C(N1C(C)=O)N3C(C)=O)N2C(C)=O`: inactive: 4%. Under `CCc1nc2c(n1)c1c(non1O)c1c2no[n+]1[O-]` stands inactive: -6%; under `CC1CCN(C(=O)Oc2c(Cl)cc(Cl)c3cccnc23)CC1`, inactive: 6%.
